Pooled drug test results. Numbers come from NIAID ChemDB, via PubChem.

Shared fields: tests in culture; organism: HIV-1; measure: fold resistance

Fold resistance has wild type as its base. Blank or dashed fields: not listed here. Lines come from different laboratories, so protocols vary.

| smiles | strain or isolate | setting | read by | cells | mutations | result |
|---|---|---|---|---|---|---|
| O=c1[nH]cnc2c1ncn2[C@H]1CC[C@@H](CO)O1 | Recombinant | - | luciferase | HeLa | RT-M41L S68N G112S M184V | 1.4 |
| Nc1ccn([C@H]2C=C[C@@H](CO)O2)c(=O)n1 | HXB2 | - | plaque count | CD4+HELA + HeLa | RT-V75T | 4.63 |
| Cc1cn([C@H]2C[C@H](N=[N+]=[N-])[C@@H](CO)O2)c(=O)[nH]c1=O | BCF01 | - | - | PBMC | RT-A98G K103R Y181C | 1 |
| Nc1nc2c(ncn2[C@H]2CO[C@@H](CO)O2)c(=O)[nH]1 | - | - | - | - | RT-M41L L74V V106A T215Y | ~2.5 |
| CC(C)Nc1cccnc1N1CCN(C(=O)c2cc3cc(NS(C)(=O)=O)ccc3[nH]2)CC1 | HXBE30(RT-P236L) | - | antigen | MT-4 | RT-P236L | 16.7 |
| CC(C)OC(=O)OCOP(=O)(CO[C@H](C)Cn1cnc2c(N)ncnc21)OCOC(=O)OC(C)C | 7324-1 NRTI resistant recombinant | - | RT activity | PBMC | RT-M41L D67N T69N K70R T215F K219E | 8.1 |
| Cc1nnc(SCC(=O)Nc2ccc(S(N)(=O)=O)cc2Cl)n1-c1cc(Br)cc2cccnc12 | NL4-3 | - | luciferase | HeLa + HeLa-JC53 | RT-Y188L | 238 |
| Cc1cc(Cl)cc(S(=O)(=O)c2cccc(N)c2C#N)c1 | - | - | β-galactosidase | HeLa + HELA CD4+ | RT-L100I K103N | 1780 |
| Nc1ccn([C@@H]2CS[C@H](CO)O2)c(=O)n1 | RT-Q151M Recombinant | - | p24 | PBMC | RT-Q151M | 0.01 |
| CC[C@]1(CO)O[C@@H](n2cc(C)c(=O)[nH]c2=O)C[C@@H]1O | RTMDR | - | β-galactosidase | HeLa | RT | >1 |
| Cc1ccnc2c1NC(=O)c1cccnc1N2C1CC1 | BCF07 | - | - | PBMC | RT-A98G V106I Y181C | 170 |
| Nc1nc(=O)n([C@@H]2CO[C@H](CO)S2)cc1F | HXB2D(RT-M184I) | - | RT activity | MT-4 | RT-M184I | 4.09 |
| Nc1ccn([C@@H]2CS[C@H](CO)O2)c(=O)n1 | 56252-1 NRTI resistant recombinant | - | RT activity | PBMC | RT-T69K K70G V75I F77L F116Y Q151M M184V | 89 |
| C=C[C@]1(CO)O[C@@H](n2cc(C)c(=O)[nH]c2=O)C[C@@H]1O | RTMDR | - | β-galactosidase | HeLa | RT | 1.2 |
| CC(C)CN(C[C@@H](O)[C@H](Cc1ccccc1)NC(=O)[C@H](CC(N)=O)NC(=O)c1ccc2ccccc2n1)C(=O)NC(C)(C)C | NL4-3 | - | p24 | MT-4 | PR-L10R | 0.5 |
| Cc1occc1C(=S)Nc1ccc(Cl)c(/C=N/OC(C)(C)C)c1 | UC10-resistant (RT Y181C K101E) | - | cytopathic effect / XTT | CEM + CEM-SS | RT-Y181C K101E | >100 |
| CC(C)CN(C[C@@H](O)[C@H](Cc1ccccc1)NC(=O)O[C@H]1CCOC1)S(=O)(=O)c1ccc(N)cc1 | IIIB | - | p24 / ELISA | MT-2 | L441P | 0.8 |
| Cc1cc(O)cc(S(=O)(=O)c2cccc(N)c2C#N)c1 | - | - | β-galactosidase | HeLa + HELA CD4+ | RT-K103N V108I | 159 |
| Nc1ccn([C@H]2CC[C@@H](CO)O2)c(=O)n1 | RTMN(181 184) (RT M41L Y181C M184V T215Y) | - | plaque count | HT4 + HT4 LacZ-1 | RT-M41L Y181C M184V T215Y | 3.92 |
| CC(C)=CCN1Cc2cc(Cl)cc3[nH]c(=S)n(c23)C[C@@H]1C | BCF02 | - | - | PBMC | RT-A98G V106I Y181C | >312.5 |
| Nc1ccn([C@H]2CC[C@@H](CO)O2)c(=O)n1 | HXB2-D294 (RT-P294S) | - | RT activity | MT-4 | RT-P294S | 1.05 |
| Cc1cc(C#N)cc(C)c1Oc1nc(Nc2ccc(C#N)cc2)ncc1SCC(=O)N1CCSCC1 | - | - | MTT | MT-4 | F227L V106A | 28.5 |
| Nc1ccn([C@H]2CC[C@@H](CO)O2)c(=O)n1 | HXB2 | - | plaque count | HELA/CD4 + HELA CD4+ | RT-L74M | 2 |
| COC(=O)N[C@H](C(=O)N[C@@H](Cc1ccccc1)[C@@H](O)CN(Cc1ccc(-c2ccccn2)cc1)NC(=O)[C@@H](NC(=O)OC)C(C)(C)C)C(C)(C)C | Site-directed PR mutant 03 | - | β-galactosidase | HeLa | PR-L10I G48V L90M | 1.7 |
| Cc1cn([C@H]2C=C[C@@H](CO)O2)c(=O)[nH]c1=O | 52534-2 NRTI resistant recombinant | - | RT activity | PBMC | RT-M41L T69ins L74V M184V L210W T215Y | 9 |
| Cc1cn([C@H]2C[C@H](N=[N+]=[N-])[C@@H](CO)O2)c(=O)[nH]c1=O | - | - | - | - | INTG-T66I N155S | 1 |
| Cc1cn([C@@H]2O[C@H](CO[Si](C)(C)C(C)(C)C)C3(OS(=O)(=O)C=C3N)[C@H]2O[Si](C)(C)C(C)(C)C)c(=O)n(C)c1=O | IIIB TIBO R82913-resistant (RT K103N) | - | syncytia | CEM | RT-K103N | 5 |
| Cc1cn([C@H]2C[C@H](N=[N+]=[N-])[C@@H](CO)O2)c(=O)[nH]c1=O | IIIB | - | p24 / ELISA | MT-2 | D437N | 1.6 |
| CC(C)(C)NC(=O)[C@@H]1C[C@@H]2CCCC[C@@H]2CN1C[C@@H](O)[C@H](Cc1ccccc1)NC(=O)[C@H](CC(N)=O)NC(=O)c1ccc2ccccc2n1 | NL4-3 | - | p24 | MT-4 | PR-L10R M46I L63P 184V | 4 |
| Cc1ccnc2c1NC(=O)c1cccnc1N2C1CC1 | Calanolide A-resistant (RT T139I) | - | cytopathic effect / XTT | CEM + CEM-SS | RT-T139I | 1 |
| O=S(=O)(c1ccccc1)c1ccccc1 | IIIB HEPT-resistant (RT P236L) | - | cytopathic effect / XTT | CEM + CEM-SS | RT-P236L | 0.8 |
| Nc1nc(NC2CC2)c2ncn([C@H]3C=C[C@@H](CO)C3)c2n1 | Recombinant | - | luciferase | HeLa | RT-M41L A62V S68N G112S V118I M184V | 0.7 |
| Nc1nc(NC2CC2)c2ncn([C@H]3C=C[C@@H](CO)C3)c2n1 | 4755-5 NRTI resistant recombinant | - | RT activity | PBMC | RT-M41L E44D D67N T69D Y118I M184V L210W T215Y | 7.7 |
| C[C@H](Cn1cnc2c(N)ncnc21)OCP(=O)(O)O | M184V (3TC-resistant RT M184V) | - | p24 | MT-2 | RT-M184V | 0.706 |
| Cc1cn([C@H]2C[C@H](N=[N+]=[N-])[C@@H](CO)O2)c(=O)[nH]c1=O | HxB2-MT 65 (RT-K65R | - | p24 / ELISA | MT-2 | RT-K65R | 1 |
| O=c1[nH]cnc2c1ncn2[C@H]1CC[C@@H](CO)O1 | RTMC (RT D67N K70R T215F K219Q) | - | plaque count | HT4 + HT4 LacZ-1 | RT-D67N K70R T215F K219Q | 1.86 |
| Cc1nnc(SCC(=O)Nc2ccccc2Br)n1-c1cccc2ccccc12 | NL4-3 | - | luciferase | HeLa + HeLa-JC53 | RT-Y188L | 360 |
| Cc1cn([C@H]2C=C[C@@H](CO)O2)c(=O)[nH]c1=O | NL4-3 | - | β-galactosidase | MAGI (CCR5) + MAGI | RT-K103N M184V | 0.8 |
| COc1ccc(-n2c(C)nnc2SCC(=O)Nc2ccccc2Br)c2ccccc12 | NL4-3 | - | luciferase | HeLa + HeLa-JC53 | RT-K103N Y181C | 133 |
| CCOCn1c(Cc2cc(C)cc(C)c2)c(CC)c(=O)[nH]c1=O | IIIB TIBO R82913-resistant (RT K103N) | - | syncytia | CEM | RT-K103N | 6.67 |
| C[C@H](Cn1cnc2c(N)ncnc21)OCP(=O)(O)O | HXB2 | pseudotyped | recombinant virus assay / single cycle | MT-2 | T66A | 1 |
| C/C=C/CSc1cc(NC(=S)c2ccsc2C)ccc1Cl | NL4-3 (RT K103N) | - | cytopathic effect / XTT | CEM + CEM-SS | RT-K103N | 16 |
| O=c1[nH]cnc2c1ncn2[C@H]1CC[C@@H](CO)O1 | HXB2-MT 65+68 (RT K65R S68G) | - | p24 / ELISA | MT-2 | RT-K65R S68G | 4.8 |
| Cc1cc(Br)cc(S(=O)(=O)c2cccc(N)c2C#N)c1 | - | - | β-galactosidase | HeLa + HELA CD4+ | RT-V106A Y181C | 44.5 |
| Nc1ccn([C@H]2C[C@H](O)[C@](CO)(CF)O2)c(=O)n1 | RT-M41L/T215Y | - | β-galactosidase | HeLa | RT-M41L T215Y | 0.761 |
| CCCc1cc(=O)oc2c3c(c4c(c12)OC(C)(C)C=C4)O[C@@H](C)[C@H](C)[C@@H]3O | UC82-R (RT-Y181C) | - | cytopathic effect / XTT | CEM + CEM-SS | RT-Y181C | 0.2 |
| Cc1cn([C@H]2C[C@H](N=[N+]=[N-])[C@@H](CO)O2)c(=O)[nH]c1=O | P022C RT D67N K70R T215F K219Q | - | plaque count | HT4 + HT4-6C | RT-D67N K70R T215F K219Q | 140 |
| C#C[C@]1(CO)O[C@@H](n2cc(C)c(=O)[nH]c2=O)C[C@@H]1O | - | - | β-galactosidase | HeLa | RT-Y181C | 0.361 |
| Nc1nc2c(ncn2[C@H]2CO[C@@H](CO)O2)c(=O)[nH]1 | RT-65R 116Y 151M | - | - | - | RT-K65R F116Y Q151M | 39 |
| CCOCn1c(Sc2ccccc2)c(CC)c(=O)[nH]c1=O | IIIB HEPT-resistant (RT Y188H) | - | syncytia | CEM | RT-Y188H | ≥4000 |
| Cc1ccc(S(=O)(=O)N(CC(C)C)C[C@@H](O)[C@H](Cc2ccccc2)NC(=O)O[C@H]2CO[C@H]3OCC[C@H]32)cc1 | IIIB | - | p24 / ELISA | MT-2 | D437N L441P | 1.5 |
| CCc1c(Sc2ccccn2)n(COCc2ccccc2)c(=O)[nH]c1=O | IIIB | - | cytopathic effect / XTT | CEM + CEM-SS | RT-V108I | 27 |
| Nc1ccn([C@@H]2CO[C@H](CO)S2)c(=O)n1 | HXB2D (RT-M184V) | - | RT activity | CBMC | RT-M184V | 0.818 |
| O=c1[nH]cnc2c1ncn2[C@H]1CC[C@@H](CO)O1 | HXB2 | - | plaque count | CD4+HELA + HeLa | RT-L74V | 6 |
| Nc1ccn([C@H]2CC[C@@H](CO)O2)c(=O)n1 | JF26 (RT M41L D67N T69D L210W T215Y) | - | plaque count | HELA-CD4+ | RT-M41L D67N T69D L210W T215Y | 0.95 |
| C[C@H](Cn1cnc2c(N)ncnc21)OCP(=O)(O)O | Recombinant | - | luciferase | HeLa | RT-M41L S68N G112S M184V | 0.5 |
| Cc1ccnc2c1NC(=O)c1cccnc1N2C1CC1 | HXB2 | - | plaque count | HT4 + HT4 LacZ-1 | RT-Y181C | 210 |
| CC(C)=CCN1Cc2cc(Cl)cc3[nH]c(=S)n(c23)C[C@@H]1C | IIIB HEPT-resistant (RT Y188H) | - | syncytia | CEM | RT-Y188H | ≥250 |
| Nc1nc(=O)n([C@@H]2CS[C@H](CO)O2)cc1F | - | - | - | - | RT-S68G Q151M T215Y | ~1 |
| CC(C)(C)C(=O)c1sc(C(=O)NCc2ccccc2)c(O)c1O | - | - | - | - | INTG-N155S | 1 |
| CCOCn1c(Sc2ccccc2)c(CC)c(=O)[nH]c1=S | IIIB TIBO R82913-resistant (RT K103N) | - | syncytia | CEM | RT-K103N | 192.5 |
| Cc1cn([C@H]2C[C@H](N=[N+]=[N-])[C@@H](CO)O2)c(=O)[nH]c1=O | Recombinant | - | p24 | PBMC | RT-M184V | 2.5 |
| CC(=O)c1ccc(C)cc1NC(C(N)=O)c1c(Cl)cccc1Cl | IIIB | - | MTT | MAGI | RT-V189I | 4.89 |
| CCc1ccc(-n2c(C)nnc2SCC(=O)Nc2ccccc2Br)c2ccccc12 | NL4-3 | - | luciferase | HeLa + HeLa-JC53 | RT-Y188L | 116 |
| CC(C)Oc1ccc(Cc2ccccc2)cc1C(=O)CC(=O)C(=O)O | - | - | - | - | INTG-Q148K | 9 |
| C#C[C@@]1(CO)C=C[C@H](n2cc(C)c(=O)[nH]c2=O)O1 | HXB2 | - | β-galactosidase | MAGI (CCR5) + MAGI | RT-Y181C | 1 |

Again, the opening 6 rows:

smiles | strain or isolate | setting | read by | cells | mutations | result
O=c1[nH]cnc2c1ncn2[C@H]1CC[C@@H](CO)O1 | Recombinant | - | luciferase | HeLa | RT-M41L S68N G112S M184V | 1.4
Nc1ccn([C@H]2C=C[C@@H](CO)O2)c(=O)n1 | HXB2 | - | plaque count | CD4+HELA + HeLa | RT-V75T | 4.63
Cc1cn([C@H]2C[C@H](N=[N+]=[N-])[C@@H](CO)O2)c(=O)[nH]c1=O | BCF01 | - | - | PBMC | RT-A98G K103R Y181C | 1
Nc1nc2c(ncn2[C@H]2CO[C@@H](CO)O2)c(=O)[nH]1 | - | - | - | - | RT-M41L L74V V106A T215Y | ~2.5
CC(C)Nc1cccnc1N1CCN(C(=O)c2cc3cc(NS(C)(=O)=O)ccc3[nH]2)CC1 | HXBE30(RT-P236L) | - | antigen | MT-4 | RT-P236L | 16.7
CC(C)OC(=O)OCOP(=O)(CO[C@H](C)Cn1cnc2c(N)ncnc21)OCOC(=O)OC(C)C | 7324-1 NRTI resistant recombinant | - | RT activity | PBMC | RT-M41L D67N T69N K70R T215F K219E | 8.1